Results of unrelated studies side by side (data: NIAID ChemDB).

Common to all: whole-cell or culture tests; agent: HIV-1; cells: PBMC; endpoint: EC50

Conditions beyond the fields shown may differ between rows. Blank or dashed fields: not listed here. ECn is the concentration giving n% inhibition of infection, replication or growth.

structure,strain or isolate,mutations,method,conditions,value
Nc1ccn([C@@H]2C=C[C@H](CO)O2)c(=O)n1,-,RT-M184V,RT activity,-,2.9 µM
O=C(NCc1ccc(F)cc1)C1C(=O)N(O)C(=O)c2ccccc21,BaL,-,-,-,0.257 µM
Nc1nc(Cl)c2ncn(CCCCCB(O)O)c2n1,BaL,-,p24,-,~0.3 µM
Fc1cccc(Cl)c1-c1nnc2ccc3c(C(F)(F)F)ccnc3n12,Isolate 2076,-,p24,-,38 µM
Nc1ncnc2c1ncn2C1OC(CO)C=C1F,LAV,-,RT activity,-,1.5 µM
FC(F)(F)c1cc(C(F)(F)F)c2ccc3nnc(-c4ccccc4)n3c2n1,Isolate 2076,-,p24,-,19 µM
Cc1ccc(Cn2c(=O)ccn(CC#N)c2=O)cc1C,IIIB,-,cytopathic effect,-,3.75 µM
COC(=O)[C@H](C)NP(=O)(OC[C@H]1O[C@@H](n2cc(C)c(=O)[nH]c2=O)C[C@@H]1N=[N+]=[N-])Oc1ccc(F)cc1,IIIB,-,p24,-,0.039 µM
CCO[C@@H]1Cc2cc(C(F)(F)F)ccc2C1N1CCN(C2(C)CCN(C(=O)c3c(C)ncnc3C)CC2)C[C@@H]1C,ADA,-,p24,-,0.0005 µM
COCCCCCCCCCCCC(=O)O,IIIB,-,syncytia,-,19 µM
Cn1cc(C(=O)O)c(=O)c2cc(F)c(N3CC=C(c4ccccc4)CC3)c(C(F)(F)F)c21,-,-,ELISA,-,0.095 µM
CSCSc1nc(Cc2ccccc2)c(C)c(=O)[nH]1,IIIB,-,MTT / p24,-,3.4 µM
Cn1cc(C(=O)O)c(=O)c2cc(N)c(N3CCN(c4cccc(C(F)(F)F)c4)CC3)cc21,IIIB,-,p24,-,0.056 µg/mL
CC(=O)N1CCC(C(=O)N(CCCN2CCC(Cc3ccc(C(N)=O)cc3)CC2)c2ccc(C)c(Cl)c2)CC1,HKW Clinical isolates,-,p24,-,0.0017 µM
CN(C[C@@H](CCN1CCC2(CC1)CS(=O)c1ccccc12)c1ccc(Cl)c(Cl)c1)S(=O)(=O)c1cccs1,YU-2 R5 strain,-,p24,-,<6 µM
Oc1ccc(-c2c3nc(c(-c4ccc(O)cc4O)c4ccc([nH]4)c(-c4ccc(O)cc4O)c4nc(c(-c5ccc(O)cc5O)c5ccc2[nH]5)C=C4)C=C3)c(O)c1,LAV,-,RT activity,-,7.3 µM
O=C(O)c1cn(-c2ccc(Cn3cncn3)cc2)c2c(OC(F)F)c(N3CC=C(c4ccccc4)CC3)c(F)cc2c1=O,IIIB,-,p24,-,0.0038 µM
CCCc1cc(=O)oc2c3c(c4c(c12)OC(C)(C)CC4)O[C@@H](C)[C@H](C)[C@@H]3O,CLADE A,-,RT activity,-,0.5 µM
O=C1CN([C@H]2C[C@H](O)[C@@H](CO)O2)C(=O)CN1,US/92/727,-,RT activity,-,72.3 µM
O=c1c(CCc2ccncc2)c(-c2ccc(C(F)(F)F)cc2)[nH]n1-c1nc2ccccc2[nH]1,NL4-3,-,p24 / ELISA,-,0.001 µM
C=C1CN(S(=O)(=O)c2ccc(C)cc2)CCCN(Cc2ccccc2)CCCN(S(=O)(=O)c2ccc(C)cc2)C1,WEJO,-,-,-,2 µM
Oc1ccc(-c2c3nc(c(-c4ccc(O)c(O)c4)c4ccc([nH]4)c(-c4ccc(O)c(O)c4)c4nc(c(-c5ccc(O)c(O)c5)c5ccc2[nH]5)C=C4)C=C3)cc1O,LAV,-,RT activity,-,12 µM
CN[C@@H]1[C@H](O[C@@H]2OC[C@@H](O)[C@H](O)[C@H]2O)[C@@H](O)[C@H](O[C@H]2c3cc(C)c(C(=O)N[C@H](C)C(=O)O)c(O)c3-c3c(cc4c(c3O)C(=O)c3cc(OC)cc(O)c3C4=O)[C@@H]2O)O[C@@H]1C,IIIB,-,p24 / ELISA,-,3.3 µM
Cc1cccc2[nH]c(C(=O)N3CCN(c4ncccc4NC(C)C)CC3)cc12,D34,-,p24,-,0.01 µM
C/C(=N\NC(=O)CN1c2c(-c3ccccc3)n[nH]c2-c2ccccc2S1(=O)=O)c1cc(Cl)sc1Cl,-,-,RT activity,-,3.2 µM
CSCC[C@H](NC(=O)[C@H](Cc1ccc(O)cc1)NC(=O)[C@H](CCCCN)NC(=O)[C@@H](N)Cc1c[nH]c2ccccc12)C(=O)N[C@H](C(=O)N[C@H](CCSC)C(=O)O)C(C)C,BAL R5,-,p24,-,>10 µM
CC(=O)N1CCC(C(=O)N(CCCN2CCC(Cc3ccc(C(N)=O)cc3)CC2)c2ccc(C)c(Cl)c2)CC1,R5-08 Clinical isolate,-,p24,-,0.00312 µM
CC(C)Nc1cccnc1N1CCN(C(=O)c2cc3cc(F)ccc3[nH]2)CC1,D34,-,p24,-,0.001 µM
Cc1cn([C@H]2C[C@H](N=[N+]=[N-])[C@@H](CO)O2)c(=O)[nH]c1=O,LAV,-,p24 / ELISA,-,0.072 µM
Cc1cc(C)cc(Cn2c(=O)ccn(Cc3c(F)cccc3F)c2=O)c1,IIIB,-,cytopathic effect,-,0.115 µM
C=CC(C)(/C=C\c1ccc(O)cc1)c1ccc(O)cc1.NC(=O)NO,BaL,-,p24,-,0.0013 µM
CC(C)(C)C1=NC(c2ccccc2)(C(F)(F)F)NC(=O)N1,BaL,-,p24 / ELISA,-,0.1323 µM
CN1C=CCC(C(=O)OC[C@H]2O[C@@H](n3ccc(=O)[nH]c3=O)C[C@@H]2N=[N+]=[N-])=C1,LAV,-,RT activity,-,1 µM
Cc1ccc(-c2ccc3c(c2)C=C(C(=O)Nc2ccc(C[N+](C)(C)C4CCOCC4)cc2)CCC3)cc1,Du174 CLADE C,-,p24,-,<1 µM
Cc1cc(C)cc(Cn2c(=O)ccn(CC#N)c2=O)c1,IIIB,-,cytopathic effect,-,0.59 µM
NC(=O)c1cc2c([nH]c3ccccc32)c(-c2ccc(CO)o2)n1,KM018 Clinical isolate,-,p24,-,0.77 µM
COC(=O)[C@H](C)NP(=O)(OC[C@@H]1C=C[C@H](n2cc(C)c(=O)[nH]c2=O)O1)Oc1ccccc1,IIIB,-,p24,-,0.002 µM
CSc1ccccc1OC(C)=O,BaL,-,p24,-,223 µM
CC(C)CN(C[C@@H](O)[C@H](Cc1ccccc1)NC(=O)O[C@H]1CO[C@H]2OCC[C@H]21)S(=O)(=O)c1ccc2nc(NC3CCN(C4CCCC4)CC3)sc2c1,SF2,-,p24,-,2.3 nM
CCCCc1cn(-c2cccc(S(=O)(=O)Nc3cccc4cnccc34)c2)nn1,-,-,-,-,9.5 µM
COc1ccc(-c2c3nc(c(-c4ccc(OC)cc4)c4ccc([nH]4)c(-c4ccc(OC)cc4)c4nc(c(-c5ccc(OC)cc5)c5ccc2[nH]5)C=C4)C=C3)cc1,LAV,-,RT activity,-,8 µM
COC(=O)[C@H](C)NP(=O)(OC[C@@H]1C=C[C@H](n2cc(C)c(=O)[nH]c2=O)O1)Oc1ccc(F)cc1,IIIB,-,p24,-,0.001 µM
CSCSc1nc(Cc2cc(C)cc(C)c2)c(C(C)C)c(=O)[nH]1,IIIB,-,MTT / p24,-,0.016 µM
CC(=O)CCCCn1c(=O)c2c(ncn2C)n(C)c1=O,-,-,RT activity,-,<250 µM
O=C(CNC(=O)COc1ccccc1)NCc1ccc(C(=O)N2CCCCC2)cc1,93BR020,-,RT activity,-,17.3 µM
Nc1ccn([C@H]2C[C@@H](CO)[C@H](O)[C@@H]2O)c(=O)n1,-,-,-,-,53 µM
Cn1cc(C(=O)O)c(=O)c2cc(N)c(N3CCN(c4cnccn4)CC3)cc21,IIIB,-,p24,-,0.045 µg/mL
Cc1ccccc1Cn1c(=O)ccn(CC#N)c1=O,IIIB,-,cytopathic effect,-,192 µM
O=c1[nH]cc(F)c(=O)[nH]1,JEW,-,p24,-,>0.5 µM
Cc1cc(C)cc(Cn2c(=O)ccn(Cc3ccccc3)c2=O)c1,IIIB,-,cytopathic effect,-,0.234 µM
COC[C@@H](c1ccc(C(F)(F)F)cc1)N1CCN(C2(C)CCN(C(=O)c3c(C)ncnc3C)CC2)C[C@@H]1C,R14/S,-,-,-,0.00021 µM
[N-]=[N+]=N[C@H]1C[C@H](CO)O[C@@H]1n1cc(F)c(N)nc1=O,LAV,-,RT activity,-,1 µM
CC(C)[C@@H]1NC(=O)[C@H](C(C)C)N([C@H]2C[C@H](N=[N+]=[N-])[C@@H](CO)O2)C1=O,US/92/727,-,RT activity,-,1.96 µM
O=c1[nH]c(=O)n([C@H]2C[C@H](O)[C@@H](CO)O2)cc1CO,-,-,RT activity,-,2.5 µg/mL
Oc1cc(O)c2c(c1)O[C@@]1(c3ccc(O)c(O)c3)Oc3cc(O)c4c(c3[C@@H]2[C@H]1O)OC(c1ccc(O)c(O)c1)C(O)C4c1c(O)cc(O)c2c1OC(c1ccc(O)c(O)c1)C(O)C2c1c(O)cc(O)c2c1OC(c1ccc(O)c(O)c1)C(O)C2c1c(O)cc(O)c2c1OC(c1ccc(O)c(O)c1)C(O)C2,X4,-,PCR,-,22.5 µg/mL
COC(=O)[C@H](C)NP(=O)(OC[C@@H]1C=C[C@H](n2cc(C)c(=O)[nH]c2=O)O1)Oc1ccc(Cl)cc1,IIIB,-,p24,-,0.001 µM
Nc1nc(NC2CC2)c2ncn([C@H]3C=C[C@@H](CO)C3)c2n1,KAB Clinical isolate,-,p24,-,>0.25 µM
C[C@@H]1NC(=O)[C@H](C)N([C@H]2C[C@H](O)[C@@H](CO)O2)C1=O,US/92/727,-,RT activity,-,27.6 µM
COC(=O)[C@H](C)NP(=O)(OC[C@H]1O[C@@H](n2cc(C)c(=O)[nH]c2=O)C[C@@H]1N=[N+]=[N-])Oc1ccc(Br)cc1,IIIB,-,p24,-,0.006 µM
CCn1cc(C(=O)O)c(=O)c2cc(F)c(N3CCN(c4ccccc4OC)CC3)c(OC(F)F)c21,IIIB,-,p24,-,0.085 µM
Cc1cn([C@@H]2C[C@@H](F)[C@H](CO)O2)c(=O)[nH]c1=O,LAV,-,RT activity,-,>100 µM
Cc1cn([C@H]2C[C@H](N=[N+]=[N-])C(COC(=O)COC[C@H]3O[C@@H](O[C@@H]4OC[C@@H](O[C@H]5[C@@H](OS(=O)(=O)[O-])[C@@H](OS(=O)(=O)[O-])[C@H](O)O[C@@H]5CO)[C@H](O)[C@H]4O)[C@H](O)[C@@H](O)[C@@H]3O[C@@H]3O[C@H](COS(=O)(=O)[O-])C[C@H](O)[C@H]3OS(=O)(=O)[O-])O2)c(=O)[nH]c1=O,Clinical isolate,-,p24 / ELISA,"clinical isolate, multidrug-resistant",4.22 µg/mL
CCNC(=O)NC(=O)C(C)OC(=O)c1c2c(nc3ccccc13)/C(=C\c1cccc(OC)c1OC)CC2,-,-,luciferase,pseudotyped,4 µM
Nc1ccn([C@H]2CO[C@@H](CO)S2)c(=O)n1,NL4-3,RT-M184V,p24,-,9.6 µM